Results: article PMC10798635, “Modulations in the host cell proteome by the hantavirus nucleocapsid protein” (2024)

Assays:
[1] = tested on: Hantavirus nucleocapsid protein (NP), wild type (Sin Nombre virus); test: filter binding
[2] = tested on: Hantavirus nucleocapsid protein (NP), wild type (Sin Nombre virus); test: BLI

VCP mRNA 5' UTR point mutant (542nd AUG to AUC)
Kd [1]: 71 nM | Kd [2]: 16 nM
